Experimental data reported in PubChem BioAssay AID1347087 (National Center for Advancing Translational Sciences (NCATS), 2019).
The entries are a selection whose mix differs from that of the whole data set. Inconclusive results are not listed. Activity calls are given as the source filed them. Calls follow the shape of the full dose curve.

Experiment: qHTS for Inhibitors of the Functional Ribonucleoprotein Complex (vRNP) of Lassa (LASV) Arenavirus: LASV Confirmatory Screen - GLuc reporter signal
Conditions: LASV minigenome vRNP, Gaussia luciferase reporter

Structure (SMILES): Cc1cc([N+](=O)[O-])cc([N+](=O)[O-])c1O
- Potency: active: 49.8 µM
